## PSTVd loop 6 mutant pool in Nicotiana benthamiana

Data from the supplement of Wu et al. 2024, doi:10.1371/journal.ppat.1012142.

The pool varies loop 6 of the PSTVd intermediate strain in the pattern UNNNCGNNNG; wild type is UGACCGCGAG (upper and lower strand joined, each 5' to 3', the first 5 letters being the upper strand, closing pairs included).

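Three N. benthamiana plants were inoculated with the whole mutant pool. Progeny were sequenced from the inoculated region (day 5), the margin of the inoculated leaf (day 10) and systemic leaves (day 12).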

Numbers give reads per thousand; 0 = not seen among the reads, higher = more abundant. Each value is the mean of three plants. "Pool" is the share in the plasmid pool used as inoculum, on the same scale. The inoculated region was read from the minus strand, the other sites from the plus strand. The authors trace changes outside the varied positions to PCR and sequencing errors or to mutation in the plant; presence does not show that a variant is infectious alone. Samples held 36,220 to 57,551 reads, so the smallest values rest on one or two reads. For reference, wild type rose from 20.7 per thousand in the pool to 195, 198, 203 (inoculated region), 629, 591, 734 (leaf margin) and 942, 870, 868 (systemic leaves).

UAUACGGAUG (pool 0.301) read inoculated region 0.113; leaf margin 0; systemic leaves 0.
UGUUCGAUAG (pool 0.301) read inoculated region 0.0955; leaf margin 0.0788; systemic leaves 0.
UCCGCGCUUG (pool 0.261) read inoculated region 0.144; leaf margin 0; systemic leaves 0.
UACGCGGCCG (pool 0.157) read inoculated region 0.106; leaf margin 0; systemic leaves 0.
UAGACGAGGG (pool 0.170) read inoculated region 0.119; leaf margin 0.00920; systemic leaves 0.
UAGGCGGAGG (pool 0.118) read inoculated region 0.0966; leaf margin 0; systemic leaves 0.
UGCUCGCAGG (pool 0.196) read inoculated region 0.102; leaf margin 0.0184; systemic leaves 0.
UGCGCGUUAG (pool 0.340) read inoculated region 0.120; leaf margin 0; systemic leaves 0.0595.
UAGCCGUAGG (pool 0.183) read inoculated region 0.0830; leaf margin 0.0414; systemic leaves 0.
UAUUCGAGAG (pool 0.222) read inoculated region 0.118; leaf margin 0; systemic leaves 0.
UCAGCGCCGG (pool 0.209) read inoculated region 0.0777; leaf margin 0; systemic leaves 0.
UACGCGAUCG (pool 0.170) read inoculated region 0.0953; leaf margin 0; systemic leaves 0.00684.
UUAUCGACCG (pool 0.314) read inoculated region 0.0837; leaf margin 0; systemic leaves 0.
UUGCCGAUGG (pool 0.366) read inoculated region 0.130; leaf margin 0.0176; systemic leaves 0.
UGCCCGCAGG (pool 0.118) read inoculated region 0.0708; leaf margin 0.0184; systemic leaves 0.
UUAACGGGGG (pool 0.118) read inoculated region 0.645; leaf margin 0.104; systemic leaves 0.
UUGUCGCAUG (pool 0.222) read inoculated region 0.145; leaf margin 0.00773; systemic leaves 0.
UAGCCGUCAG (pool 0.288) read inoculated region 0.0724; leaf margin 0.110; systemic leaves 0.
UACACGGCCG (pool 0.157) read inoculated region 0.599; leaf margin 0.0978; systemic leaves 0.
GGACCGUAGG (pool 0.0131) read inoculated region 0.0297; leaf margin 0; systemic leaves 0.
UCAACGUCUG (pool 0.235) read inoculated region 0.0833; leaf margin 0.0169; systemic leaves 0.
UAAUCGGUAG (pool 0.392) read inoculated region 0.108; leaf margin 0; systemic leaves 0.
UAUUCGGUGG (pool 0.353) read inoculated region 0.108; leaf margin 0.00773; systemic leaves 0.00684.
UAUGCGCUUG (pool 0.288) read inoculated region 0.0786; leaf margin 0; systemic leaves 0.
UUCGCGUCGG (pool 0.418) read inoculated region 0.0909; leaf margin 0.00773; systemic leaves 0.00684.
UUUACGGAGG (pool 0.157) read inoculated region 0.114; leaf margin 0; systemic leaves 0.
UAAACGAUAG (pool 0.183) read inoculated region 0.716; leaf margin 0.115; systemic leaves 0.0322.
UUAUCGACAG (pool 0.366) read inoculated region 0.0769; leaf margin 0.00920; systemic leaves 0.
UUUACGUUUG (pool 0.275) read inoculated region 0.0898; leaf margin 0; systemic leaves 0.
UGGUCGUAAG (pool 0.118) read inoculated region 0.143; leaf margin 0.00920; systemic leaves 0.
UACGCGACUG (pool 0.248) read inoculated region 0.0601; leaf margin 0.00773; systemic leaves 0.
UGCGCGGGAG (pool 0.209) read inoculated region 0.0897; leaf margin 0; systemic leaves 0.0263.
UUUCCGAUAG (pool 0.314) read inoculated region 0.0942; leaf margin 0.572; systemic leaves 0.
UCCCCGCGAG (pool 0.405) read inoculated region 0.341; leaf margin 6.04; systemic leaves 0.0998.
UUCGCGGAGG (pool 0.248) read inoculated region 0.0723; leaf margin 0; systemic leaves 0.
UGCGCGAUCG (pool 0.209) read inoculated region 0.113; leaf margin 0.00773; systemic leaves 0.

The opening 4 entries, copied out:

sequence,pool,inoculated region,leaf margin,systemic leaves
UAUACGGAUG,0.301,0.113,0,0
UGUUCGAUAG,0.301,0.0955,0.0788,0
UCCGCGCUUG,0.261,0.144,0,0
UACGCGGCCG,0.157,0.106,0,0